Results of unrelated studies side by side (data: NIAID ChemDB).

Common to all: tests in culture; species: Herpes simplex virus 1; endpoint: EC50

Blank or dashed fields: not listed here.

| smiles | strain | method | value |
|---|---|---|---|
| [N-]=[N+]=N[C@H]1C[C@@H](CO)S[C@@H]1n1ccc(N)nc1=O | - | - | >100 µg/mL |
| Nc1ccn(COCCO)c(=O)n1 | - | plaque count | >100 µM |
| COc1ccc(-c2[nH]c3nc4c(ncn4COCCO)c(=O)n3c2-c2ccc(C(c3ccccc3)c3ccccc3)cc2)cc1 | TK-deficient acyclovir-resistant | cytopathic effect | >16 µg/mL |
| Nc1nc2c(ncn2COC(CO)CO)c(=O)[nH]1 | 119681 | PCR | 0.4 µM |
| [N-]=[N+]=N[C@H]1C[C@@H](CO)S[C@@H]1n1cnc2c(=O)[nH]cnc21 | - | - | >100 µg/mL |
| CCc1cn([C@@H]2OC3COP(=O)(O)OC3[C@H]2O)c(=O)nc1N | McIntyre | - | >400 µg/mL |
| O=c1c2ncn(COCCO)c2[nH]c2ncc(CO)n12 | KOS | cytopathic effect | >3.2 µg/mL |
| CC(=O)OCCOCn1cc(C(F)(F)F)c(=O)[nH]c1=O | - | plaque count | >100 µM |
| O=C(NCc1ccc(Cl)cc1)c1c[nH]c2c(F)cccc2c1=O | TSD9 (E597 (A)) | - | 7.6 µM |
| O=c1c2ncn(COC(CO)CO)c2nc2[nH]c(-c3ccccc3)cn12 | McIntyre | cytopathic effect | 0.005 µg/mL |
| O=C(NCc1ccc(Cl)cc1)c1c[nH]c2ccc(CCCO)cc2c1=O | Patton | plaque count | 20 µM |
| CNc1ncnc2c1ncn2[C@H]1S[C@H](CO)C[C@@H]1N=[N+]=[N-] | - | - | >100 µg/mL |
| O=c1c2ncn(COC(CO)CO)c2[nH]c2nccn12 | McIntyre | cytopathic effect | 0.7 µg/mL |
| CCCCCc1cn([C@@H]2O[C@H](COP(=O)(O)O)[C@@H](O)[C@H]2O)c(=O)nc1N | F | - | >400 µg/mL |
| Cc1cn(COCCOC(=O)c2ccccc2)c(=O)[nH]c1=O | - | plaque count | >100 µM |
| CCCCc1cn([C@@H]2OC3COP(=O)(O)OC3[C@H]2O)c(=O)nc1N | KOS | - | >400 µg/mL |
| CCOCn1ccc(=O)[nH]c1=O | - | plaque count | >100 µM |
| CCCCCCc1cn([C@@H]2OC3COP(=O)(O)OC3[C@H]2O)c(=O)nc1N | F | - | >400 µg/mL |
| O=C(NCc1ccc(Cl)cc1)c1c[nH]c2c(F)cc(CCCO)cc2c1=O | PFA2 (T566A A605V) | - | 0.6 µM |
| CCCCCCCCc1cn([C@@H]2O[C@H](COP(=O)(O)O)[C@@H](O)[C@H]2O)c(=O)nc1N | F | - | >400 µg/mL |
| CC(=O)OCCOCn1cnc2c(=O)n3cc(-c4ccc5ccccc5c4)[nH]c3nc21 | McIntyre | cytopathic effect | >16 µg/mL |
| CCc1cn([C@@H]2O[C@H](COP(=O)(O)O)[C@@H](O)[C@H]2O)c(=O)nc1N | KOS | - | >400 µg/mL |
| [N-]=[N+]=N[C@H]1C[C@H](CO)S[C@@H]1n1cnc2c(=O)[nH]cnc21 | - | - | >100 µg/mL |

Again, the opening 2 rows:

smiles | strain | method | value
[N-]=[N+]=N[C@H]1C[C@@H](CO)S[C@@H]1n1ccc(N)nc1=O | - | - | >100 µg/mL
Nc1ccn(COCCO)c(=O)n1 | - | plaque count | >100 µM

ECn: concentration that inhibits the pathogen or its effect by n%. Neighbouring rows are from separate reports.